According to ChEMBL document CHEMBL3045201, “Quantitative Structure-Activity Relationships of Fluazinam and Related Fungicidal N-phenylpyridinamines” (1996):

Assays:
Podosphaera fuliginea = assay: Fungicidal activity against Podosphaera fuliginea infected in 24 hr compound pre-treated cucumber plant assessed as disease control measured after 10 days
Pyricularia oryzae = assay: Fungicidal activity against Magnaporthe oryzae infected in 24 hr compound pre-treated Oryza sativa cv. Chukyoasahi assessed as disease control measured after 10 days
Rhizoctonia solani = assay: Fungicidal activity against Rhizoctonia solani infected in 24 hr compound pre-treated Oryza sativa cv. Chukyoasahi assessed as disease control measured after 10 days

Work on `[N-]=[N+]=Nc1c(C(F)(F)F)cc([N+](=O)[O-])c(Nc2ncc(C(F)(F)F)cc2Cl)c1[N+](=O)[O-]` yielded an I90 (Podosphaera fuliginea) of 63 ppm, an I90 (Pyricularia oryzae) of 16 ppm and an I90 (Rhizoctonia solani) of 250 ppm.
